Laboratory results reported in patent US10590365B2, “Compounds for a controlled release of active molecules” (FIRMENICH SA, priority 2013, dated 2020).

Tested on: Propionibacterium acnes ATCC 6919
Assay: Incubation of pro-perfume glucuronide mixture with skin bacteria; remaining conjugate by LC-MS
Format: cell-based
Conditions: After 1 day, 37° C.; result in words
Experimental: The liberation of perfuming alcohols from the present invention's compounds of formula (I) was tested in vitro during incubation with defined skin bacteria strains.
c) Bacterial solutions: Two underarm bacterial isolates, Propionibacterium acnes ATCC 6919 and Staphylococcus warneri DSM 20316 (identified by 16S rDNA sequencing by Deutsche Sammlung von Mikroorganismen and ZellKulturen DSMZ, Germany), were cultivated on SCH agar at 37° C. during 72 h in anaerobic conditions and on TSA at 37° C. during 24 h, respectively.
One isolated colony of P. acnes from the pure primary culture on SCH agar was inoculated on a new SCH agar and incubated at 37° C., 72 h in anaerobic conditions. After incubation, the whole culture was dissociated by shaking in 20 ml of NaCl 0.9% then centrifuged 10 min at 5000 rpm at room temperature. The pellet was washed in NaCl 0.9% and concentrated two times in NaCl 0.9%. […]
The vials were placed in a heating block at 37° C. under gentle stirring from 1 to 7 days depending on the bacteria solutions. At the end of the incubation time, vials were cooled down to room temperature, 150 μL was mixed with 50 μL of LC-MS solvent B, filtered through acrodisc and 1 μL was injected on LC-MS (peak areas considered were measured in SIM mode according to their respective molecular weights). […]

CC1CCC(C(C)C)C(OC2O[C@H](C(=O)O)[C@@H](O)[C@H](O)[C@H]2O)C1 (stereo partly shown) [p-menthan-3-ol, glucopyranosiduronic acid 1-menthyl]
Glucuronide-conjugates remaining after incubation with Propionibacterium acnes: No transformation
